Compound potency records, mixed from different reports. Data source: NIAID ChemDB in PubChem.

Shared fields: growth or infection tests; organism: Mycobacterium tuberculosis

MIC50, MIC90 and the like: level of inhibition, or share of isolates inhibited. ECn is the concentration giving n% inhibition of infection, replication or growth. An empty or dashed field is not shown. Inhibition is in % at the dose shown (toxicity tests: loss of growth or viability). MIC bound comes from a single tested concentration. Rows are shuffled and stem from different studies.

structure	strain	mutations	method	measure	tested at	value
CCCCCCCCO[C@H]1OC(CO[C@H]2O[C@H](CO)[C@@H](O)[C@@H]2OCc2ccccc2)[C@@H](OCc2ccccc2)[C@@H]1OCc1ccccc1	H37Ra			MIC		>128 µg/mL
CC(=O)NC[C@H]1CN(c2ccc(N3CCOCC3)c(F)c2)C(=O)O1	linezolid resistant 8.7	T460C Cys154Arg		MIC		32 µg/mL
O=c1[nH]c(=O)n(COCCO)cc1I	H37Ra			EC50		>100 µg/mL
CCOC(=O)Cn1nc(-c2ccc([N+](=O)[O-])o2)sc1=O	H37Rv		BACTEC	MIC bound		>12.5 µg/mL
CCC(C)N1CCN(c2cc(=O)c3nc4c(oc3c2)c2c(=O)c3c(O)c(C)c5c(c34)=C(O)[C@@](C)(O/C=C/[C@H](OC)[C@@H](C)[C@@H](OC(C)=O)[C@H](C)[C@H](O)[C@H](C)[C@@H](O)[C@@H](C)/C=C/C=C(/C)C(=O)N2)O5)CC1	16 strains (rifampicin-susceptible)			MIC50		0.025 µg/mL
O=[N+]([O-])c1cc(Cl)cc2[nH]c(CCc3ccccc3)nc12	H37Rv		broth dilution	MIC		>100 µg/mL
CO[C@H]1/C=C/O[C@@]2(C)Oc3c(C)c(O)c4c(=O)c(c5oc6cc(N7CCN(CC(C)C)CC7)cc(=O)c6nc5c4c3=C2O)NC(=O)/C(C)=C\C=C\[C@H](C)[C@H](O)[C@@H](C)[C@@H](O)[C@@H](C)[C@H](OC(C)=O)[C@@H]1C	16 strains (rifampicin-susceptible)			MIC50		≤0.0125 µg/mL
CCOC(=O)N1CCN(c2cc(-c3ccccc3)c3ccc(=O)[nH]c3n2)CC1	H37Rv			EC50		>12.5 µg/mL
O=C(N/N=C/c1ccccc1)c1ccc(Nc2ccccc2)cc1				MIC		>40 µg/mL
CC[C@@H](CO)NCCN[C@@H](CC)CO	H37Rv			MIC		1.733 µg/mL
CC(=O)Nc1ccc2c(-c3ccccc3)cc(=O)[nH]c2n1	H37Rv			EC50		>12.5 µg/mL
Fc1ccc2nc(CCc3cc(Cl)cc(Cl)c3)[nH]c2c1	H37Rv		broth dilution	MIC		>100 µg/mL
Cl.Cl.Cl.c1ccc(-c2cc(N3CCNCC3)nc3ncccc23)cc1	H37Rv			inhibition	12.5 µg/mL	0%
Cc1cc(-c2cccs2)oc(=O)c1NC(=O)c1ccccc1	H37Rv		resazurin	MIC bound		>6.25 µg/mL
O=C(NN1C(=O)c2c(Cl)c(Cl)c(Cl)c(Cl)c2C1=O)c1ccc(-n2cccc2)cc1	H37Rv		resazurin	MIC		0.4 µg/mL
CC(=O)Nc1cc2c(O)c(N=Nc3ccc(C(=O)Nc4ccc(N=Nc5ccc(S(=O)(=O)O)cc5)cc4)cc3)c(S(=O)(=O)O)cc2cc1S(=O)(=O)O	H37Rv		BACTEC	inhibition	12.5 µg/mL	16%
C[C@H]1Oc2nc([N+](=O)[O-])cn2C[C@@H]1OCc1ccc(OC(F)(F)F)cc1	H37Rv		absorbance	MIC		0.2 µM
Clc1ccc(-c2csc(-n3cccc3)n2)c(Cl)c1	H37Rv		resazurin	MIC		0.8 µg/mL
CC(C)=NNC(=O)c1ccccc1Cl				MIC		100 µg/mL
CCCCCCCCCCCCCCCCCCOCC(COP(=O)(O)OCC[N+](C)(C)C)OC	H37Rv		BACTEC	MIC bound		>12.5 µg/mL
Cc1ccc(C)n1-c1ccc(C(=O)NN2C(=O)c3cc(Cl)c(Cl)cc3C2=O)cc1	H37Rv		resazurin	MIC		0.8 µg/mL
CN(C)c1ccc(C(Nc2nc(-c3ccc(O)cc3)cs2)C2CCCCC2=O)cc1	H37Rv		broth dilution / agar / visual reading	MIC		50 µg/mL
CCCCc1c(O)c(N=NC(=O)C[N+](C)(C)C)c2ccccc2c1O	H37Rv		BACTEC	MIC		≥12.5 µg/mL
NNC(=O)c1ccncc1	H37Rv			MIC		0.107 µg/mL
CC[C@H]1OC(=O)[C@H](C)[C@@H](O[C@H]2C[C@@](C)(OC)[C@@H](O)[C@H](C)O2)[C@H](C)[C@@H](O[C@@H]2O[C@H](C)C[C@H](N(C)C)[C@H]2O)[C@](C)(OC)C[C@@H](C)C(=O)[C@H](C)[C@@H](O)[C@]1(C)O	30 strains			MIC90		>10 µg/mL
Cc1c(N2CCCC(C(=O)N(C)C)C2)c([N+](=O)[O-])cc2c(=O)c(C(=O)O)cn(C3CC3)c12	H37Rv			MIC		13.28 µM
CC1COc2c(N3CCN(C)CC3)c(F)cc3c(=O)c(C(=O)O)cn1c23	CDC1551		broth dilution	MIC		0.5 µg/mL
Cc1c(F)c(N2CCNC(C)C2)cc2c1c(=O)c(C(=O)O)cn2C1CC1	45 strains (drug-susceptible)			MIC90		1 µg/mL
O=C(NNS(=O)(=O)c1ccc(Cl)c(Cl)c1)c1ccccc1				MIC		200 µg/mL
CN[C@H]1CC[C@]23C[C@]24CC[C@]2(C)[C@@H]([C@H](C)N(C)C)CC[C@@]2(C)[C@@H]4CC[C@H]3C1(C)C	H37Rv		BACTEC	inhibition	12.5 µg/mL	41%
Nc1ccc2c(-c3ccccc3)cc(N(CCO)CCO)nc2n1	H37Rv			inhibition	12.5 µg/mL	15%
NNC(=O)c1ccccc1SSc1ccccc1C(=O)NN	ETA-R			MIC		>12.5 µg/mL
Cc1ccc2c(c1)C(=O)N(NC(=O)c1ccc(-n3c(C)ccc3C)cc1)C2=O	H37Rv		resazurin	MIC		6.25 µM
NNC(=O)c1ccncc1	linezolid resistant 8.3	T460C Cys154Arg		MIC		0.06 µg/mL
[N-]=[N+]=NC(CCl)c1cn(COCCO)c(=O)[nH]c1=O	H37Ra			EC50		>10 µg/mL
COc1ccc(-c2csc(NC(c3ccc(OC)cc3)C3CCCCC3=O)n2)cc1	H37Rv		broth dilution / agar / visual reading	MIC		50 µg/mL
CN(C)CC1CCC2=C(C1=O)C(c1ccc(Cl)c(Cl)c1)C1=C(CCC(CN(C)C)C1=O)O2	H37Rv		BACTEC	inhibition	12.5 µg/mL	15%
CNn1cc(C(=O)O)c(=O)c2cc(F)c(N3CCN(C)CC3)cc21	19 strains			MIC50		6.2 µg/mL
c1ccc(CCc2nc3cc4ccccc4cc3[nH]2)cc1	Isolate 192		broth dilution	MIC		>100 µg/mL
Cc1c(N2CCC(O)(c3ccc(Cl)cc3)CC2)c([N+](=O)[O-])cc2c(=O)c(C(=O)O)cn(C3CC3)c12	H37Rv			MIC		6.29 µM
CCCCCC#Cc1cn(COCCO)c(=O)[nH]c1=O	H37Ra			EC50		>100 µg/mL
CC(=O)NC[C@H]1CN(c2ccc(N3CCOCC3)c(F)c2)C(=O)O1	263 strains			MIC		0.25 µg/mL
CNc1ccc(C)cc1S(=O)(=O)c1ccccc1[N+](=O)[O-]	H37Rv		BACTEC	inhibition	12.5 µg/mL	32%
Cc1ccc(-c2csc(NC(c3cccc(Cl)c3)C3CCCCC3=O)n2)cc1	H37Rv		broth dilution / agar / visual reading	MIC		50 µg/mL
CC1=CC(=O)N(NC(=O)c2ccc(-n3c(C)ccc3C)cc2)C1=O	H37Rv		resazurin	MIC		3.125 µg/mL
COc1ccc(C(Nc2nc(-c3ccc(C)cc3)cs2)C2CCCCC2=O)cc1	H37Rv		broth dilution / agar / visual reading	MIC		50 µg/mL
CCCCCCCCO[C@@H]1O[C@@H](C(CO[C@@H]2O[C@@H](C(O)CO)[C@H](O)[C@H]2O)OC)[C@H](OC)[C@H]1OC	H37Ra			MIC		>128 µg/mL
Nc1c(C2CCCCC2)c(=O)on1C(=O)c1ccccc1	H37Rv		resazurin	MIC bound		>6.25 µg/mL
CCOC(=O)N1CCN(c2ccc3c(-c4ccccc4)cc(OC)nc3n2)CC1	H37Rv			EC50		<12.5 µg/mL
COc1cc2c(cc1OC)CN(c1c([N+](=O)[O-])cc3c(=O)c(C(=O)O)cn(C(C)(C)C)c3c1C)CC2	H37Rv			MIC		25.23 µM
CO/N=C(\C(=O)N[C@@H]1C(=O)N2C(C(=O)O)=CCS[C@H]12)c1csc(N)n1	26 strains			MIC50		64 µg/mL
Cc1ccccc1N=Nc1sc(N)nc1-c1ccccc1	H37Rv		BACTEC	MIC bound		>6.25 µg/mL
Cc1c(N2CCc3ccccc3C2C(=O)NC(C)(C)C)c([N+](=O)[O-])cc2c(=O)c(C(=O)O)cn(C3CC3)c12	H37Rv			MIC		1.5 µM
c1ccc(-c2csc(-n3cccc3)n2)cc1	H37Rv		resazurin	MIC		0.4 µg/mL
C=C1C(=O)N[C@@H](CC(C)C)C(=O)N[C@H](CC(C)C)C(=O)N[C@H](C(=O)O)[C@H](C)C(=O)N[C@H](CCCN=C(N)N)C(=O)N[C@@H](/C=C/C(C)=C/[C@H](C)[C@H](Cc2ccccc2)OC)[C@@H](C)C(=O)N[C@@H](C(=O)O)CCC(=O)N1C		Isoniazid-resistant	resazurin	MIC		26.5 µM
CO[C@H]1/C=C/O[C@@]2(C)Oc3c(C)c(O)c4c(O)c(c(/C=N/N5CCN(C)CC5)c(O)c4c3C2=O)NC(=O)/C(C)=C\C=C\[C@H](C)[C@H](O)[C@@H](C)[C@@H](O)[C@@H](C)[C@H](OC(C)=O)[C@@H]1C	H37Rv		broth dilution	MIC		1.2 µg/mL
COc1ccc(-c2csc(NC(c3ccc(N(C)C)cc3)C3CCCCC3=O)n2)cc1	H37Rv		broth dilution / agar / visual reading	MIC		50 µg/mL
C=C1C(=O)O[C@@H]2/C=C(/C)[C@@H](OC(C)=O)C[C@H](O)/C(C)=C\[C@@H](OC(=O)/C(C)=C\C)[C@H]12	H37Rv		BACTEC	inhibition	12.8 µg/mL	0%
Cc1ccc(-c2csc(NC(c3ccc(O)cc3)C3CCCCC3=O)n2)cc1	H37Rv		broth dilution / agar / visual reading	MIC		50 µg/mL
Cc1cn(COCCO)c(=O)[nH]c1=O	H37Ra			EC50		>100 µg/mL
O=C(NNC(=O)c1cc(Cl)ccc1Cl)c1cc(Cl)ccc1Cl				MIC		>200 µg/mL
CN1C(=O)C2N(N(C)C1=O)C1(Br)C(=O)NC(=O)C21Br	H37Rv		BACTEC	MIC bound		>12.5 µg/mL
Cc1c(N2CCC(N3CCCCC3)CC2)c([N+](=O)[O-])cc2c(=O)c(C(=O)O)cn(-c3ccc(F)cc3F)c12	H37Rv			MIC		>23.74 µM
C[C@@H]([C@H](N)C(=O)N[C@H](C(=O)O)[C@H]1O[C@@H](n2ccc(=O)[nH]c2=O)[C@H](O)[C@@H]1O)[C@H](O)c1ccc(O)cn1	H37Rv		BACTEC	inhibition	12.5 µg/mL	-8%
CCCCCCCCO[C@@H]1O[C@H]([C@@H](CO)O[C@H]2O[C@H](CO)[C@@H](O)[C@@H]2O)[C@H](O)[C@H]1O	H37Ra			MIC		>128 µg/mL
CNC(=O)ON(C(C)=O)C(=O)NC	H37Rv		BACTEC	inhibition	12.5 µg/mL	-10%
O=c1ccc2c(-c3ccccc3)cc(N3CCNCC3)nc2[nH]1	H37Rv			inhibition	12.5 µg/mL	7%
NC(N)=Nc1nc2ccc(Cl)cc2[nH]1	H37Rv		resazurin	MIC bound		>6.25 µg/mL
COc1ccc(CC2C3=C(CCCC3)CCN2c2c([N+](=O)[O-])cc3c(=O)c(C(=O)O)cn(C(C)(C)C)c3c2C)cc1	H37Rv			MIC		>22.34 µM
CC1S(=O)(=O)OCCOS1(=O)=O	H37Rv		BACTEC	MIC bound		>12.5 µg/mL
CCc1cc(C(N)=S)ccn1	25 strains		agar	inhibition	10 µg/mL	100%
C=CCSS/C=C/CS(=O)CC=C	H37Rv		BACTEC	inhibition	12.5 µg/mL	98%
CC1COc2c(N3CCN(C)CC3)c(F)cc3c(=O)c(C(=O)O)cn1c23	37 strains (drug-resistant)			MIC50		1 µg/mL
COc1cc(C2=N/C(=C\c3ccccc3O)C(=O)O2)cc(OC)c1OC	H37Rv		BACTEC	MIC bound		>12.5 µg/mL
S=c1nn[nH]n1-c1ccccc1				MIC		>200 µg/mL
CCOC(=O)c1nc(C)oc1N	H37Rv		BACTEC	MIC bound		>12.5 µg/mL
CCCCCCCCO[C@@H]1O[C@@H]([C@H](COCc2ccccc2)O[C@H]2O[C@H](COCc3ccccc3)[C@@H](OCc3ccccc3)[C@@H]2OCc2ccccc2)[C@H](OCc2ccccc2)[C@H]1OCc1ccccc1	H37Ra			MIC		>128 µg/mL

For reference, 7 entries again:

structure,strain,mutations,method,measure,tested at,value
CC[C@@H](CO)NCCN[C@@H](CC)CO,H37Rv,,,MIC,,1.733 µg/mL
NNC(=O)c1ccncc1,H37Rv,,,MIC,,0.107 µg/mL
CCCCCCCCO[C@@H]1O[C@@H]([C@H](COCc2ccccc2)O[C@H]2O[C@H](COCc3ccccc3)[C@@H](OCc3ccccc3)[C@@H]2OCc2ccccc2)[C@H](OCc2ccccc2)[C@H]1OCc1ccccc1,H37Ra,,,MIC,,>128 µg/mL
Cl.Cl.Cl.c1ccc(-c2cc(N3CCNCC3)nc3ncccc23)cc1,H37Rv,,,inhibition,12.5 µg/mL,0%
CN(C)CC1CCC2=C(C1=O)C(c1ccc(Cl)c(Cl)c1)C1=C(CCC(CN(C)C)C1=O)O2,H37Rv,,BACTEC,inhibition,12.5 µg/mL,15%
Clc1ccc(-c2csc(-n3cccc3)n2)c(Cl)c1,H37Rv,,resazurin,MIC,,0.8 µg/mL
O=[N+]([O-])c1cc(Cl)cc2[nH]c(CCc3ccccc3)nc12,H37Rv,,broth dilution,MIC,,>100 µg/mL